The values below come from ChEMBL document CHEMBL5385915 (J Med Chem, 2024).

The source made the active and inactive calls. No cut-off for these calls is given here.

This test relates to Mycobacterium tuberculosis variant bovis. Put plainly: Antibacterial activity against Mycobacterium bovis BCG harboring pTIC6-fbpA overexpressing Ag85A by end point resazurin assay. A general note: Resazurin is reduced to fluorescent resorufin, in cell work by metabolically active cells.

Turning to `O=c1c2ccccc2[se]n1-c1ccccc1`, the result was inactive.
